system: S. aureus; assay: Therapeutic index (LD50 rats / MIC100 S. aureus); design: species or system Staphylococcus aureus; settings: ratio of LD50 in rats to MIC

Structure (SMILES) | Ther. Index (LD50,rats/MIC100, S. aureus)
Cc1cc(C(C#N)c2ccc(Cl)cc2)c(Cl)cc1NC(=O)c1cc(I)cc(I)c1O (stereo not drawn) [Closantel, closantel] | 176,000
O=C(Nc1ccc([N+](=O)[O-])cc1Cl)c1cc(Cl)ccc1O [Niclosamide, niclosamide] | 12,500,000
O=C(Nc1ccc(Oc2ccc(Cl)cc2)c(Cl)c1)c1cc(I)cc(I)c1O [Rafoxanide, rafoxanide] | 1,875,000

From US12036312B2, “Non-aqueous topical compositions comprising a halogenated salicylanilide” (priority 2016, dated 2024)
